We go through 17 compounds from patent US9920069B2, “Compounds for treatment of fluoroquinolone-resistant bacteria” (The Board of Trustees of the University of Illinois, priority 2014, dated 2018).

Molecules are shown by their SMILES. In brackets after ≈: the same amount, converted by molar mass.

For one assay, the system named is S. aureus NRS3 (S84L GyrA and S80F ParC). In words: microbe, parasite or virus in culture. The assay is classed as cell-based. Conditions: Staphylococcus aureus, NRS3, read-out: MIC against S. aureus NRS3.
Regarding `CN[C@H](CC(C)C)C(=O)N[C@H]1C(=O)N[C@@H](CC(N)=O)C(=O)N[C@H]2C(=O)N[C@H]3C(=O)N[C@H](C(=O)N[C@H](C(=O)O)c4cc(O)cc(O)c4-c4cc3ccc4O)[C@H](O)c3ccc(c(Cl)c3)Oc3cc2cc(c3O[C@@H]2O[C@H](CO)[C@@H](O)[C@H](O)[C@H]2O[C@H]2C[C@](C)(N)[C@H](O)[C@H](C)O2)Oc2ccc(cc2Cl)[C@H]1O` [VANC, vancomycin, reference compound], the MIC came out at 8 µg/mL (≈ 5.52 µM).

Take `CC(=O)NC[C@H]1CN(c2ccc(N3CCOCC3)c(F)c2)C(=O)O1` [LINEZ, linezolid, reference compound]: the MIC is 0.5 µg/mL (≈ 1.48 µM).

Staying with this assay, now noted: Staphylococcus aureus, NRS3; read-out: MIC against S. aureus NRS3.
Consider `CCCCCCn1c(=O)cc(C)c2cc3c(C)cc(=O)n4c3c(c21)OC4` [Compound 10], for which the MIC is 1 µg/mL (≈ 2.84 µM).

Consider `Cc1cc(=O)n(C)c2c3c4c(cc12)c(C)cc(=O)n4CO3` [DNM, deoxynybomycin], for which the MIC is 0.03 µg/mL (≈ 0.106 µM).

Regarding `CCc1cc(=O)n2c3c(c4c(cc13)c(C)cc(=O)n4C)OC2` [DNM-3], the MIC came to 0.12 µg/mL (≈ 0.405 µM).

Turning to `Cc1cc(=O)n(C)c2c3c4c(cc12)c(C)cc(=O)n4C(C)O3` (centres unmarked) [Compound 5], the MIC was determined as 0.03 µg/mL (≈ 0.101 µM).

For the compound `CCCn1c(=O)cc(C)c2cc3c(C)cc(=O)n4c3c(c21)OC4` [DNM-8], the MIC is 0.12 µg/mL (≈ 0.387 µM).

`CCCCn1c(=O)cc(CCC)c2cc3c(CCC)cc(=O)n4c3c(c21)OC4` [Compound 15]: the MIC is 32 µg/mL (≈ 84.1 µM).

With `CCCc1cc(=O)n2c3c(c4c(cc13)c(C)cc(=O)n4C)OC2` [Compound 6], the MIC turned out to be 0.25 µg/mL (≈ 0.806 µM).

With `CCc1cc(=O)n(C)c2c3c4c(cc12)c(C)cc(=O)n4CO3` [Compound 4], the MIC turned out to be 0.25 µg/mL (≈ 0.844 µM).

With `CCCc1cc(=O)n(C)c2c3c4c(cc12)c(C)cc(=O)n4CO3` [Compound 7], the MIC was 1 µg/mL (≈ 3.22 µM).

Take `Cc1cc(=O)n2c3c(c4c(cc13)c(C)cc(=O)n4CC(C)C)OC2` [Compound 11]: the MIC is 2 µg/mL (≈ 6.17 µM).

Regarding `CCCCCn1c(=O)cc(C)c2cc3c(C)cc(=O)n4c3c(c21)OC4` [Compound 9], the MIC was found to be 0.25 µg/mL (≈ 0.739 µM).

Turning to `CCc1cc(=O)n(C)c2c3c4c(cc12)c(CC)cc(=O)n4CO3` [Compound 13], the MIC is 16 µg/mL (≈ 51.6 µM).

For the compound `CCn1c(=O)cc(C)c2cc3c(C)cc(=O)n4c3c(c21)OC4` [DNM-2], the MIC worked out at 0.03 µg/mL (≈ 0.101 µM).

For the compound `CCCc1cc(=O)n(C)c2c3c4c(cc12)c(CCC)cc(=O)n4CO3` [Compound 14], the MIC turned out to be 32 µg/mL (≈ 94.6 µM).

`Cc1cc(=O)n2c3c(c4c(cc13)c(C)cc(=O)n4CC(C)(C)C)OC2` [Compound 12]: the MIC was determined as 16 µg/mL (≈ 47.3 µM).
